PMC12144419, “Early preclinical development of Mycobacteriumtuberculosis amino acid biosynthesis pathway inhibitor DRILS-1398 as a potential anti-TB drug” (iScience, 2025)
Read-outs that look alike come from different tables or passages of the source.

Protein sequences, listed by entry. Tags and fused reporters are not part of them. Lines headed by an entry give the natural chain unless they say otherwise; changes in a name come on top.
UniProt Q12809: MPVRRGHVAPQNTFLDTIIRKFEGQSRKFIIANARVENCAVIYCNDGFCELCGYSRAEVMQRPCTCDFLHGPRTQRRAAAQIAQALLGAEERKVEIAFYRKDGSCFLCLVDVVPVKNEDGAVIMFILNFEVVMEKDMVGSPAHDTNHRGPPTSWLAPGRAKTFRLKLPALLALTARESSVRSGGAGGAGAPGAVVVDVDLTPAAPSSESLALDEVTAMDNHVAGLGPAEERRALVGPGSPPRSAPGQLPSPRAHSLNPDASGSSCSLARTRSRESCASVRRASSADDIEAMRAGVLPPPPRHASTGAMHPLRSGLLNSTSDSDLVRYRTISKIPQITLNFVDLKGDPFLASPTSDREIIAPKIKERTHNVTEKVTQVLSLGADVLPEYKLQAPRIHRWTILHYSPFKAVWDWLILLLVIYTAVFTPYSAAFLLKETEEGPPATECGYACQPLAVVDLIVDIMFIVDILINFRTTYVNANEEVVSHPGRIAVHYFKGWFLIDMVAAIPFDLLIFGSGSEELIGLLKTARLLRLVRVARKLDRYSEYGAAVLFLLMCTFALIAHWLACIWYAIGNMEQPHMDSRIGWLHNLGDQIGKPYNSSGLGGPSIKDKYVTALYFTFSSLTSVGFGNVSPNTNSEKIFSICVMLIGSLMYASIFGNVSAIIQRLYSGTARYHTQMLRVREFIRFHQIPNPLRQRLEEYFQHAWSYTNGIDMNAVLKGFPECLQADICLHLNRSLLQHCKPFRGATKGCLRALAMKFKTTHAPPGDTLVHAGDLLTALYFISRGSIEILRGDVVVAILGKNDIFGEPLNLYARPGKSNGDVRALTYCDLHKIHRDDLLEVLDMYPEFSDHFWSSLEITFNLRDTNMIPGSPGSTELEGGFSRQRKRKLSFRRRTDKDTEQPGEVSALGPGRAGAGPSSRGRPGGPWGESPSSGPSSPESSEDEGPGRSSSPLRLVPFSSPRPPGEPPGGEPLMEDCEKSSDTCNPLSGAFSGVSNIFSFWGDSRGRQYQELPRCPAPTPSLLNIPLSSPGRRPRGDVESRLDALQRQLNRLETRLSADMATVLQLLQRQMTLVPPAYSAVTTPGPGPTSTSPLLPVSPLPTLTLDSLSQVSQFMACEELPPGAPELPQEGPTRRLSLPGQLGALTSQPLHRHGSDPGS

Legend:
[1] = biological target: T1, hERG channel (IKr) (Homo sapiens, UniProt Q12809)
[2] = biological target: T1, hERG channel (IKr); test: cell-based
[3] = biological target: T1, hERG channel (IKr); remark: listed apart in the source

In the case of `CCCc1nn(C)c2c(-c3c[nH]c4ccc(Cl)cc34)nc(-c3ccc(Cl)cc3)nc12` [DRILS-1398], the “hERG (IKr) inhibition, verdict” value [1] is reported as “moderate inhibitor”, the IC50 [2] is reported as 10.2 µM and the “Inhibition of hERG current vs vehicle control” value (“Inhibition … vs vehicle control” below) ([3]; 0.1 μM) is reported as 18.59%. The “Inhibition … vs vehicle control” value ([3]; 0.3 μM) was 32.32%, the “Inhibition … vs vehicle control” value ([3]; 1 μM) was 32.98% and the “Inhibition … vs vehicle control” value ([3]; 3 μM) was 39.09%. For the same molecule, the “Inhibition … vs vehicle control” value ([3]; 10 μM) was 47.89% and the “Inhibition … vs vehicle control” value ([3]; 30 μM) was 60.18%.
